Anti-infective test results gathered from many reports (values: NIAID ChemDB through PubChem).

Shared fields: tests in culture; agent: Candida tropicalis; read-out: MIC

Blank or dashed fields: not listed here.

C[C@H]1N(C(=O)c2ccc(C(F)(F)F)cc2)C[C@@H](O)O[C@@]1(Cn1cncn1)c1ccc(F)cc1F ; strain or isolate: Isolate 2 ; value: 64 µg/mL
CC(C)(O)c1cn(-c2ccc(Cl)cc2)nn1 ; method: broth dilution ; strain or isolate: URM 1150 ; value: 128 µg/mL
C[C@@H]1C(=O)N(c2ccccc2)C(=O)[C@@H]1C ; method: broth dilution / turbidity ; strain or isolate: CCC 131-2000 ; value: 31.3 µg/mL
O=C1C(O)C(c2ccccc2)N1c1ccccc1 ; strain or isolate: CP/K92 ; value: 25.09 µM
CC1CC(=O)N(CCCCc2ccccc2)C1=O ; method: broth dilution / turbidity ; strain or isolate: CCC 131-2000 ; value: 125 µg/mL
CCCCCCCCCCCCCCCCn1cc[n+](C)c1 ; method: broth dilution ; strain or isolate: 57A ; value: 0.014 µg/mL
O=C(CCn1ccnc1)c1cccc(O)c1 ; method: broth dilution ; strain or isolate: RTCC 1095 ; value: >64 µg/mL
CC(C)CC1NC(=O)CC(CCCCCCCCC(C)O)OC(=O)C(CC(C)C)NC(=O)C(CC(C)C)NC(=O)C(CC(C)C)NC(=O)C(C(C)C)NC(=O)C(CC(=O)O)NC(=O)C(CC(C)C)NC1=O ; method: absorbance ; strain or isolate: MTCC 1406 ; value: 2 µg/mL
N=C(N)c1ccc(OCCCCCCOc2ccc(C(=N)N)cc2)cc1 ; method: agar diffusion / agar ; strain or isolate: Ct1 ; value: 22 µg/mL
CC(=O)OC1C(=O)N2CCCSC12c1ccccc1 ; strain or isolate: CP/K92 ; value: 90.25 µM
CC1CC(=O)N(CCCc2ccccc2)C1=O ; method: broth dilution / turbidity ; strain or isolate: CCC 131-2000 ; value: 125 µg/mL
O=C(CCn1ccnc1)c1ccc(Br)cc1 ; method: broth dilution ; strain or isolate: RTCC 1065 ; value: >64 µg/mL
C[C@@H]([C@H](N)C(=O)N[C@H](C(=O)O)[C@H]1O[C@@H](n2ccc(=O)[nH]c2=O)[C@H](O)[C@@H]1O)[C@H](O)c1ccc(O)cn1 ; method: visual reading ; strain or isolate: 1525 ; value: >500 µg/mL
Cc1ccccc1N1C(=O)CC(C)C1=O ; method: broth dilution / turbidity ; strain or isolate: CCC 131-2000 ; value: 125 µg/mL
CCCCCCCCCCCCCCCC(=O)NC(CCCCN)C(=O)NC(CCCCN)C(N)=O ; method: broth dilution ; strain or isolate: 4867 ; value: 2 µg/mL
COC(=O)c1ccc(N2C(=O)C(OC(C)=O)C2c2ccc(F)cc2)cc1 ; strain or isolate: CP/K92 ; value: 8.4 µM
CCCCCCCC/C=C\CCCCCCCC(=O)N[C@H](C(=O)N1C[C@H](C)C[C@H]1C(=O)N[C@H](C(=O)N[C@@H](CCO)C(=O)N[C@@H](C)C=O)C(C)C)[C@@H](C)O ; method: broth dilution / visual reading ; strain or isolate: ATCC 750 ; value: 0.5 µg/mL
O=C1C(OS(=O)(=O)c2ccc(Br)cc2)C(c2ccccc2)N1c1ccccc1 ; strain or isolate: CP/K92 ; value: 27.25 µM
OC(CCn1ccnc1)c1ccc(-c2ccccc2)cc1 ; method: broth dilution ; strain or isolate: RTCC 1065 ; value: >64 µg/mL
CC[C@@H]([C@H](C)O)n1ncn(-c2ccc(N3CCN(c4ccc(OC[C@@H]5CO[C@@](Cn6cncn6)(c6ccc(F)cc6F)C5)cc4)CC3)cc2)c1=O ; method: broth dilution ; strain or isolate: 8662 ; value: 0.03 µg/mL
OC(CCn1ccnc1)c1cccc(C(O)c2ccc(Br)cc2)c1 ; method: broth dilution ; strain or isolate: RTCC 1095 ; value: >64 µg/mL
COC(=O)c1ccc(N2C(=O)C(OC(C)=O)C2c2ccccc2)cc1 ; strain or isolate: CP/K92 ; value: 17.69 µM
Cc1ccc(N2C(=O)C[C@@H](C)C2=O)cc1 ; method: broth dilution / turbidity ; strain or isolate: CCC 131-2000 ; value: 62.5 µg/mL
CC1CC2=C(O1)c1ccccc1C(=O)C2=O ; method: broth dilution ; strain or isolate: Clinical isolate ; value: 37.3 µg/mL
C[C@@H](c1ncncc1F)[C@](O)(Cn1cncn1)c1ccc(F)cc1F ; method: broth dilution ; strain or isolate: 8664 ; value: 0.03 µg/mL
O=C(CCn1ccnc1)c1cccc2ccccc12 ; method: broth dilution ; strain or isolate: RTCC 1065 ; value: >64 µg/mL
CC1CC(=O)N(c2ccc(Cl)cc2)C1=O ; method: broth dilution / turbidity ; strain or isolate: CCC 131-2000 ; value: 250 µg/mL
CO/N=C/C(C)(C)C(O)(Cn1cncn1)c1ccc(Cl)cc1 ; method: visual reading ; strain or isolate: 53 ; value: 1 µg/mL
O=C(CCn1ccnc1)c1cccc(C(O)c2ccc(Cl)cc2)c1 ; method: broth dilution ; strain or isolate: RTCC 1065 ; value: 64 µg/mL

Again, the opening 4 rows:

SMILES | method | strain or isolate | value
C[C@H]1N(C(=O)c2ccc(C(F)(F)F)cc2)C[C@@H](O)O[C@@]1(Cn1cncn1)c1ccc(F)cc1F | - | Isolate 2 | 64 µg/mL
CC(C)(O)c1cn(-c2ccc(Cl)cc2)nn1 | broth dilution | URM 1150 | 128 µg/mL
C[C@@H]1C(=O)N(c2ccccc2)C(=O)[C@@H]1C | broth dilution / turbidity | CCC 131-2000 | 31.3 µg/mL
O=C1C(O)C(c2ccccc2)N1c1ccccc1 | - | CP/K92 | 25.09 µM

Rows are shuffled and stem from different studies.